According to PMC5371411 (mBio, 2017):

Molecular target: His-EspCΔ430-448 (enteropathogenic Escherichia coli (EPEC), UniProt Q9EZE7 55-1032, Δ430-448)
Assay: far-Western, overlay or dot blot

B1: His-EspA (natural protein)
chain: MDTSTTASVASANASTSTSMAYDLGSMSKDDVIDLFNKLGVFQAAILMFAYMYQAQSDLSIAKFADMNEASKESTTAQKMANLVDAKIADVQSSSDKNAKAQLPDEVISYINDPRNDITISGIDNINAQLGAGDLQTVKAAISAKANNLTTTVNNSQLEIQQMSNTLNLLTSARSDMQSLQYRTISGISLGK
notes: also called EPEC secreted protein A
**Q.** Does B1 bind?
**A.** binds
